PMC8387031, “Structures of Substrate Complexes of Foamy Viral Protease-Reverse Transcriptase”
For at least one entry, the source does not settle the construct or the ends of the probe.

Target: MFV PR-RT full-length (marmoset foamy virus) (UniProt D5JWV1)
Assay: GF/MALS
Conditions: 2:1 protein:NA, 0.5 mM EDTA, peaks 171.0 kDa (dimer, major) and 131.8 kDa (monomer), GF/MALS: 20 mM HEPES pH 7.0, 250 mM NaCl, 5% glycerol, 1 mM DTT, cryo-EM: 150 mM NaCl, 20 mM HEPES pH 7.0, 1 mM DTT, recombinant protein

“GTGAGCGAACAGAGTGCGACACCTGATTCCATG / TCATGGAATCAGGTGTCGACTCTGTTC [GF/MALS dsDNA]”: binds.
